{"source": "patent US20180325914A1", "about": "“INCREASING STORAGE OF VITAMIN A, VITAMIN D AND/OR LIPIDS” (Salk Institute for Biological Studies, priority 2014, published 2018)", "tested_on": "primary HSCs", "data": [{"smiles": "Cc1sc2c(c1C)C(c1ccc(Cl)cc1)=N[C@@H](CC(=O)OC(C)(C)C)c1nnc(C)n1-2", "note": "[JQ1, (S)-tert-butyl 2-(4-(4-chlorophenyl)-2,3,9-trimethyl-6H-thieno[3,2-f][1,2,4]triazolo[4,3-a][1,4]diazepin-6-yl)acetate]", "values": [{"measurement": "log2(fold_change), gene Marveld1", "result": 0.02774}]}]}
